Measurements from article PMC11808136, “Screening and identification of host signaling pathways for alleviating influenza-induced production of pro-inflammatory cytokines, IP-10, IL-8, and MCP-1, using a U937 cell-based influenza model” (Frontiers in Microbiology, 2025).
Where “and” joins values, the source holds several entries; their conditions need not be identical. Equal entries are not always repeated. Where two headings read alike, the source gives them in different places.

Assays:
[1] = tested on: MCP-1 production in influenza virus-infected U937 cells (H1N1); assay type: cell-based
[2] = tested on: IL-8 production in influenza virus-infected U937 cells (H1N1); assay type: cell-based, Human
[3] = tested on: IP-10 production in influenza virus-infected U937 cells (H1N1); assay type: cell-based
[4] = tested on: IL-8 production in influenza virus-infected U937 cells (H3N2); assay type: cell-based, Human
[5] = tested on: IP-10 production in influenza virus-infected U937 cells (H3N2); assay type: cell-based, Human
[6] = tested on: MCP-1 production in influenza virus-infected U937 cells (H3N2); assay type: cell-based, Human
[7] = tested on: MCP-1 production in influenza virus-infected U937 cells (H7N8); assay type: cell-based, Human
[8] = tested on: IL-8 production in influenza virus-infected U937 cells (H7N8); assay type: cell-based, Human
[9] = tested on: IP-10 production in influenza virus-infected U937 cells (H7N8); assay type: cell-based, Human
[10] = secondary screen, Supplemental Table 1
[11] = secondary screen, Supplemental Table 1, ratio CC50 / EC50
[12] = H3N2, selectivity index CC50/EC50
[13] = H1N1, selectivity index CC50/EC50
[14] = H7N8, selectivity index CC50/EC50

Compound	SI MCP-1 [1, 10]	SI IL-8 [2, 10]	SI IP-10 [3, 11]	other results
Cc1ccc(NC(=O)c2cccc(C(C)(C)C#N)c2)cc1Nc1ccc2ncn(C)c(=O)c2c1 [AZ 628]	556	1000	103	–
Cc1cc(Nc2nc(N[C@@H](C)c3ccc(F)cc3)c(C#N)cc2F)[nH]n1 [AZ 960]	1200	1200	600	–
Cc1cc(Nc2nc(N[C@@H](C)c3ncc(F)cn3)ncc2Cl)n[nH]1 [AZD1480]	449	122	135	SI IL-8 [4, 12]: 14; SI MCP-1 [1, 13]: 16; SI IP-10 [5, 12]: 5,823; SI IL-8 [2, 13]: 13; SI MCP-1 [6, 12]: 209; SI MCP-1 [7, 14]: 140; SI IP-10 [3, 13]: 13; SI IL-8 [8, 14]: 466; SI IP-10 [9, 14]: 1,747
O=C(Nc1cccc(Nc2ncc(Br)c(NCCc3cnc[nH]3)n2)c1)N1CCCC1 [BX-912]	278	244	95	–
Cc1ccc(NC(=O)c2ccc(CN3CC[C@H](N(C)C)C3)c(C(F)(F)F)c2)cc1Nc1nccc(-c2cncnc2)n1 [Bafetinib (INNO-406), Bafetinib]	116	169	244	–
CN1CCN(c2cccc(Nc3nc4c(-c5ccc(S(C)(=O)=O)cc5)cccn4n3)c2)CC1 [CEP-33779]	44	29	48	–
CC#CC(=O)Nc1ccc2ncnc(Nc3cccc(Br)c3)c2c1 [CL-387785 (EKI-785)]	11	17	17	–
C=CC(=O)Nc1cccc(Nc2nc(Nc3ccc(Oc4ccnc(C(=O)NC)c4)cc3)ncc2F)c1 [CNX-774]	97	1550	11	–
N#CCNC(=O)c1ccc(-c2ccnc(Nc3ccc(N4CCOCC4)cc3)n2)cc1 [CYT387]	180	18	11	–
CCS(=O)(=O)N1CCN(c2ccc(Nc3ncc(C(N)=O)c(NC4CC4)n3)cc2)CC1 [Cerdulatinib (PRT062070, PRT2070), Cerdulatinib]	175	700	70	–
Cc1nc(Nc2ncc(C(=O)Nc3c(C)cccc3Cl)s2)cc(N2CCN(CCO)CC2)n1 [Dasatinib]	714	49	77	SI MCP-1 [1, 13]: >526; SI IP-10 [5, 12]: 5,968; SI IL-8 [2, 13]: >53; SI MCP-1 [6, 12]: 5,501; SI MCP-1 [7, 14]: 2,277; SI IP-10 [3, 13]: >86; SI IL-8 [8, 14]: 743; SI IP-10 [9, 14]: 7,143
C=CC(=O)Nc1ccc(CN2C(=O)N(c3cc(OC)cc(OC)c3)Cc3cnc(Nc4ccc(N5CCN(C)CC5)cc4)nc32)cc1 [FIIN-2]	119	555	52	–
COc1cc(Nc2ncc(F)c(Nc3ccc4c(n3)N(COP(=O)(O)O)C(=O)C(C)(C)O4)n2)cc(OC)c1OC [Fostamatinib (R788), Fostamatinib]	235	118	80	–
Cc1ccc(Nc2ncc3c(n2)N(C)C(=O)N(c2cc(NC(=O)c4cccc(C(F)(F)F)c4)ccc2C)C3)cn1 [GNF-7]	–	6600	–	SI IL-8 [4]: >500; SI IP-10 [5]: >20,000; SI MCP-1 [6]: >1,000; SI MCP-1 [7]: >125; SI IL-8 [8]: >1,000; SI IP-10 [9]: >2,564
Cc1ccc(C(=O)Nc2ccc(CN3CCN(C)CC3)c(C(F)(F)F)c2)cc1C#Cc1cnc2[nH]ncc2c1 [GZD824]	960	960	960	–
O=C(c1ccc(Nc2nccc(-c3cc4ccccc4s3)n2)cc1)N1CCC(N2CCCC2)CC1 [IKK-16 (IKK Inhibitor VII)]	1780	1780	1780	–
O=C(Nc1cc(C(F)(F)F)cc(C(F)(F)F)c1)c1cc(Cl)ccc1O [IMD 0354]	18	55	14	–
CC(C)n1nc(-c2ccc3oc(N)nc3c2)c2c(N)ncnc21 [INK 128 (MLN0128)]	148	148	49	–
CC(C)(C)Cn1c(N)nc2ccc(-c3[nH]c(C(C)(C)C)nc3-c3ccc(F)cc3)nc21 [LY2228820]	22	10000	14	–
Cc1cc(Nc2cc(CN3CCOCC3)c3nc(C)c(Cc4ccc(Cl)cc4F)n3n2)n[nH]1 [LY2784544]	5200	5200	2600	–

Compound	SI MCP-1 [1, 10]	SI IL-8 [2, 10]	SI IP-10 [3, 11]	other results
C[C@@H](Oc1ccc2[nH]nc(/C=C/c3cnn(CCO)c3)c2c1)c1c(Cl)cncc1Cl [LY2874455]	680	680	680	–
CNS(=O)(=O)C[C@H]1CC[C@H](N(C)c2ncnc3[nH]ccc23)CC1 [Oclacitinib]	263	1000	278	–
NC(=O)c1cnc2[nH]ccc2c1N[C@@H]1[C@@H]2CC3C[C@H]1C[C@@](O)(C3)C2 [Peficitinb (ASP015K, JNJ-54781532), Peficitinb]	–	3470	–	SI MCP-1 [1]: 3470; SI IP-10 ([3]; ratio CC50 / EC50): 1735
CCOc1cc2ncc(C#N)c(Nc3ccc(F)c(Cl)c3)c2cc1NC(=O)/C=C/CN(C)C [Pelitinib (EKB-569), Pelitinib]	–	–	–	SI MCP-1 [1]: 85; SI IL-8 [2]: 85; SI IP-10 ([3]; ratio CC50 / EC50): 13
C=CC(=O)N1CCC(Oc2cc3c(Nc4ccc(Cl)c(Cl)c4F)ncnc3cc2OC)CC1 [Poziotinib (HM781-36B), Poziotinib]	37	71	42	–
COc1cc(Nc2ncc(F)c(Nc3ccc4c(n3)NC(=O)C(C)(C)O4)n2)cc(OC)c1OC [R406 (free base)]	88	36	143	–
COc1cc(Nc2ncc(F)c(Nc3ccc4c(n3)NC(=O)C(C)(C)O4)n2)cc(OC)c1OC [R406]	–	122	–	SI IL-8 [4]: >145; SI MCP-1 [1]: >416 and 370; SI IP-10 [5]: >19,607; SI IL-8 [2]: >769; SI MCP-1 [6]: >1,617; SI MCP-1 [7]: >2,857; SI IL-8 [8]: >1,136; SI IP-10 [9]: >1,111
COc1cc(Nc2ncc(F)c(Nc3ccc4c(n3)N(COP(=O)([O-])[O-])C(=O)C(C)(C)O4)n2)cc(OC)c1OC.[Na+].[Na+] [R788 (Fostamatinib) Disodium]	46	123	19	–
CNC(=O)c1cc(Oc2ccc(NC(=O)Nc3ccc(Cl)c(C(F)(F)F)c3)c(F)c2)ccn1 [Regorafenib (BAY 73-4506), Regorafenib]	12	33	11	–
N#CC[C@H](C1CCCC1)n1cc(-c2ncnc3[nH]ccc23)cn1 [Ruxolitinib (INCB018424), Ruxolitinib]	–	–	–	SI MCP-1 [1]: 3333; SI IL-8 [2]: 833; SI IP-10 ([3]; ratio CC50 / EC50): 1429
Cc1cc(Nc2ncc3c(n2)N(C)C(=O)N(c2cc(NC(=O)c4cccc(C(F)(F)F)c4)ccc2C)C3)n(C)n1 [SC1]	–	20000	–	SI MCP-1 [1]: 2500; SI IP-10 ([3]; ratio CC50 / EC50): 10000
Cc1c[nH]c2nc(Nc3ccc(N4CCN(C)CC4)c(F)c3)nc(-c3cccc(CC#N)c3)c12 [SGI-7079]	770	770	770	–
CCN(CC)CCNC(=O)c1c(C)[nH]c(/C=C2\C(=O)Nc3ccc(F)cc32)c1C [Sunitinib Malate]	71	497	38	–
Cn1c(=O)c(F)c(Nc2ccc(I)cc2F)c2c(=O)n(C[C@@H](O)CO)cnc21 [TAK-733]	–	–	–	SI MCP-1 [1]: 1125; SI IL-8 [2]: 9000; SI IP-10 ([3]; ratio CC50 / EC50): 32
NC(=O)Nc1sc(-c2ccc(F)cc2)cc1C(N)=O [TPCA-1]	92	39	157	–
CC(C)(C)c1cc(C=C(C#N)C#N)cc(C(C)(C)C)c1O [Tyrphostin 9]	103	207	92	–
C=CC(=O)Nc1cccc(Oc2nc(Nc3ccc(N4CCN(C)CC4)cc3)ncc2Cl)c1 [WZ3146]	2800	1400	21	–
O=C(Nc1ccc(-c2ccnc(Nc3ccc(N4CCOCC4)cc3)n2)cc1)C1CCCN1 (stereo not drawn) [XL019]	28	52	27	–
S-Ruxolitinib [S-Ruxolitinib (INCB018424)]	1667	3333	1250	–
